System: Legionella pneumophila
Assay: Anti-infective activity against Legionella pneumophila harboring GFP in Acanthamoeba castellanii assessed as inhibition of bacterial replication at 30 uM by spectrophotometric method relative to vehicle control

Cc1ccc(/C=C2\SC(=S)N([C@@H](Cc3c[nH]c4ccccc34)C(=O)O)C2=O)c2ccccc12
inhibition (INH): 89%

Reference: ChEMBL document CHEMBL3861953 (J Med Chem, 2016)
